This is an account of results in patent US20230391838A1 (priority 2020, published 2023).

Amino acid sequences for entries named in this document (tags omitted). A change or cut given only in a name is not applied to a line headed by its entry.
UniProt P36544: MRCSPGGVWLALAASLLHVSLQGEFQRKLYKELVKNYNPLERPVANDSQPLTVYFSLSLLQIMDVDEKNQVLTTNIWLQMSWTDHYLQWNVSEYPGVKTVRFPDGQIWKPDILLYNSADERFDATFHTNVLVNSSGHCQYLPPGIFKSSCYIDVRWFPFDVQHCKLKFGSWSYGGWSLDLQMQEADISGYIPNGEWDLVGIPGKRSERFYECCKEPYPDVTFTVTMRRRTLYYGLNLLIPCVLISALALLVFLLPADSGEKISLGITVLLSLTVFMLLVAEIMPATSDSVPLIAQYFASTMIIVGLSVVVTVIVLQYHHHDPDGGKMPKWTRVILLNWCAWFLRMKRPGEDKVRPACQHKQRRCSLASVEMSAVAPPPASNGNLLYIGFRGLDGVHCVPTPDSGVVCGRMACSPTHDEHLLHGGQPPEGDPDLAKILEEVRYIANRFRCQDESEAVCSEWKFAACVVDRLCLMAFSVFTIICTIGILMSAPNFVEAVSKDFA

The test addresses α7 nAChR (Homo sapiens, UniProt P36544). The test is described as follows: α7. Particulars: read-out: α7.

As for “G C^I C^II T D P R C^III (Cit) (iY) Q C^IV Y”, the IC50 is > 10 µM.
